Compound potency records, mixed from different reports. Data source: NIAID ChemDB in PubChem.

Common to all: growth or infection tests; species: HIV-1

Neighbouring rows are from separate reports.

smiles	endpoint	method	cells	mutations	strain	result
CC(=O)N1CCn2c(nc(C(=O)NCc3ccc(F)cc3)c(O)c2=O)C1C	EC95	p24	MT-4			<50 µM
CC(=O)Nc1ccc(S(=O)(=O)N(CC(C)C)C[C@@H](O)[C@H](Cc2ccccc2)NC(=O)[C@H](CC(N)=O)NC(=O)c2ccc3ccccc3n2)cc1F	EC90	p24	CEM		IIIB	≤0.1 µM
CC(C)[C@H](C)CC[C@](C)(O)[C@H]1C(=O)C[C@H]2[C@@H]3C(=O)C=C4C[C@@H](O)CC[C@]4(C)[C@H]3CC[C@@]21C	EC50	MTT	MT-4	G140S/Q148R INI-resistant	NL4-3	0.1053 µM
CC(C)CN(C[C@@H](O)[C@H](Cc1ccccc1)NC(=O)O[C@H]1CCOC1)S(=O)(=O)N1CCCCC1	EC50	p24	CEM		IIIB	<1 µM
CCC(O)(c1cccc(C)c1)c1c(C)c(=O)[nH]c(=O)n1COCc1ccccc1	EC50	MTT	MT-4		IIIB	>154 µM
N#Cc1ccc(Nc2nc(Oc3ccc(-c4ccc(C#N)cc4)c(C(F)(F)F)c3)c3sccc3n2)cc1	EC50	MTT	MT-4		IIIB	0.5262 µM
Cc1cn([C@H]2C=C[C@@H](CO)O2)c(=O)[nH]c1=O	EC90	p24	MT-4	RT-M184V	XM-M184V	0.3 µM
C[C@@H]1CN(C(=O)c2ccccc2)CCN1C(=O)C(=O)c1c[nH]c2ccc(F)cc12	EC50	luciferase	HeLa + HELA CD4+/CCR5			<10 µM
CC(C)c1c(C(C)c2ccc(F)cc2)n(COCc2ccccc2)c(=O)[nH]c1=O	EC50	MTT	MT-4	Y181C	IIIB	>33.73 µM
O=C(N[C@@H](Cc1ccccc1)[C@H](O)CN(CC1CCCC1)S(=O)(=O)c1ccc(Cl)cc1)OCc1cccnc1	EC50	p24	CEM		IIIB	<0.101 µM
Cc1ccc(CNC(=O)c2nc3n(c(=O)c2O)CCN(C)CC3N(C)C(=O)C(=O)N(C)C)cc1Cl	EC95	p24	MT-4			<1 µM
CS(=O)(=O)N1CCC2(C1)OCCn1c2nc(C(=O)NCc2ccc(F)cc2)c(O)c1=O	EC50	luciferase / reporter gene	MT-2		NL4-3	0.01–0.1 µM
C=C(CC[C@](C)(O)[C@H]1[C@@H](O)C[C@H]2[C@@H]3[C@H](O)C=C4C[C@@H](O)CC[C@]4(C)[C@H]3CC[C@@]21C)C(C)C	EC50	MTT	MT-4		NL4-3	1.75 µM
O=C(C(=O)N1CCN(C(=O)c2ccccc2)CC1)c1c[nH]c2cc(F)c(F)cc12	EC50	luciferase	HeLa + HELA CD4+/CCR5			<10 µM
C=C(C)[C@@H]1CC[C@]2(C(=O)NCCCCCCCCC(=O)N[C@H](CCC(N)=O)C(=O)OC)CC[C@]3(C)[C@H](CC[C@@H]4[C@@]5(C)CC[C@H](OC(=O)CC(C)(C)C(=O)O)C(C)(C)[C@@H]5CC[C@]43C)[C@@H]12	EC50	absorbance		T371delta	NL4-3	0.067 µM
CN(CC1c2nc(C(=O)NCc3ccc(F)cc3)c(O)c(=O)n2CCN1C)C(=O)CS(C)(=O)=O	EC95	p24	MT-4			<50 µM
N#CC1=CC2Nc3ccccc3C2N(c2ccc([N+](=O)[O-])cc2)C1=O	EC50	GFP / fluorescence	HeLa		D-92UG046	1 µM
O=c1[nH]cnc2c1ncn2[C@@H]1O[C@H](CO)C[C@@H]1F	EC50	RT activity	MT-2	RT-V75I	IIIB BCH-13520-resistant (RT V75I)	0.93 µM
C/C=C/CSc1cc(NC(=S)c2ccsc2C)ccc1Cl	EC50	p24	CEM + CEM-SS	RT-K103N	NL4-3	4.8 µM
CN1c2ccccc2C2C1C=C(C#N)C(=O)N2c1ccc([N+](=O)[O-])cc1	EC50	GFP / fluorescence	HeLa		10076-4	0.14 µM
CSc1ccccc1CNC(=O)c1nc2n(c(=O)c1O)CN(C)C2(C)C	EC95	p24	MT-4			<50 µM
CC(=O)Nc1ccc(S(=O)(=O)N(CC(C)C)C[C@@H](O)[C@H](Cc2ccccc2)NC(=O)OC(C)(C)C)cc1	EC50	p24	CEM		IIIB	<10 µM
Nc1nc(NC2CC2)c2ncn([C@H]3CO[C@@H](CO)O3)c2n1	EC50	RT activity	U-937		IIIB Laboratory strain	0.63 µM
C=C(c1ccccc1)c1c(C)c(=O)[nH]c(=O)n1COCc1ccccc1	EC50	MTT	MT-4	K103N	IIIB	46.06 µM
Cc1cc(-c2ccc(C#N)cc2)cc(Cl)c1Oc1nc(Nc2ccc(C#N)cc2)nc2ccsc12	EC50	MTT	MT-4	Y188L	IIIB	0.1075 µM
Nc1ccn([C@H]2CC[C@@H](CO)O2)c(=O)n1	EC50	MTT	MT-4		Clinical isolate	1.25 µg/mL
C=CCOC(=O)N[C@@H](Cc1ccccc1)[C@H](O)CN(CC(C)C)S(=O)(=O)c1ccc(F)cc1	EC50	p24	CEM		IIIB	<10 µM
CC(C)CN(C[C@@H](O)[C@H](Cc1ccccc1)NC(=O)[C@H](CC(N)=O)NC(=O)c1ccc2ccccc2n1)S(=O)(=O)c1ccc(F)cc1	EC90	p24	CEM		IIIB	<0.1 µM
CCC(O)(c1ccc(OC)cc1)c1c(C)c(=O)[nH]c(=O)n1COCc1ccccc1	EC50	MTT	MT-4		IIIB	>63.81 µM
CC(=O)Nc1ccc(S(=O)(=O)N(CC2CCCC2)C[C@@H](O)[C@H](Cc2ccccc2)NC(=O)OCc2cccnc2)cc1	EC50	p24	CEM		IIIB	<1 µM
Cc1noc(C)c1S(=O)(=O)N(Cc1ccccc1)C[C@@H](O)[C@H](Cc1ccccc1)NC(=O)[C@H](CC(N)=O)NC(=O)c1ccc2ccccc2n1	EC50	p24	CEM		IIIB	<1.001 µM
CC(C)=CCOc1cc(NC(=S)c2ccoc2C)ccc1Cl	EC50	cytopathic effect / XTT	CEM + CEM-SS	RT-K101E	NL4-3 (RT K101E)	0.04 µM
O=C(C(=O)N1CCN(C(=O)c2ccccn2)CC1)c1c[nH]c2c(F)ccc(F)c12	EC50	luciferase	HeLa + HELA CD4+/CCR5			<10 µM
COc1ccnc2[nH]cc(C(=O)C(=O)N3CCN(C(=O)c4ccccc4)C[C@H]3C)c12	EC99	luciferase	TZM-bl		QH0692	5.2 µM
CC(C)CN(C[C@@H](O)[C@H](Cc1ccccc1)NC(=O)OC(C)(C)C)S(=O)(=O)c1cccc(F)c1	EC50	p24	CEM		IIIB	<10 µM
N#Cc1ccc(Nc2nc(Oc3c(F)cc(-c4ccc(C#N)cc4)cc3F)c3sccc3n2)cc1	EC50	MTT	MT-2	Y181C	IIIB	0.1206 µM
CCOC(=O)C1CN(C(=O)c2ccccc2)CCN1C(=O)C(=O)c1c[nH]c2c(C(=O)OC)cccc12	EC50	luciferase	HeLa + HELA CD4+/CCR5			<10 µM
O=C(N[C@@H](Cc1ccccc1)[C@H](O)CN(CC1CCCC1)S(=O)(=O)c1ccc(Cl)cc1)OCc1cccnc1	EC50	p24	CEM		IIIB	<1 µM
CC(C)CN(C[C@@H](O)[C@H](Cc1ccccc1)NC(=O)O[C@@H]1CCOC1)S(=O)(=O)c1ccc(F)cc1	EC50	p24	CEM		IIIB	<0.101 µM
Cc1ncnn1-c1cc(F)ccc1CNC(=O)c1nc2n(c(=O)c1O)CCCOC21CCN(C(=O)OCc2ccccc2)CC1	EC50	luciferase / reporter gene	MT-2		NL4-3	0.001–0.01 µM
NC(=O)C[C@H](NC(=O)c1ccc2ccccc2n1)C(=O)N[C@@H](Cc1ccccc1)[C@H](O)CN(Cc1ccccc1)S(=O)(=O)c1ccccc1	EC50	p24	CEM		IIIB	<1.001 µM
C#C[C@@]1(CO)C=C[C@H](n2cc(C)c(=O)[nH]c2=O)O1	EC50	recombinant virus assay	MT-2	M41L/A98G/K103N/M184V/L210W/T215Y	Clinical isolate	1.07 µM
COC(=O)N1CCC2(CC1)OCCn1c2nc(C(=O)NCc2ccc(F)cc2-n2cncn2)c(O)c1=O	EC50	luciferase / reporter gene	MT-2		NL4-3	0.001–0.01 µM
CC(C)(C)OC(=O)Nc1ccc(C(=O)N2CCN(C(=O)C(=O)c3c[nH]c4cccc(F)c34)CC2)cc1	EC50	luciferase	HeLa + HELA CD4+/CCR5			<10 µM
CC(C)=CCOc1cc(NC(=S)c2ccsc2C)ccc1Cl	EC50	cytopathic effect / XTT	CEM + CEM-SS	RT-A98G V108I	TIBO R82150-resistant (RT A98G V108I)	0.2 µM
Cc1ccc(S(=O)(=O)N2CCC3(CC2)OCCn2c3nc(C(=O)NCc3ccc(F)cc3-n3cncn3)c(O)c2=O)cc1	EC50	luciferase / reporter gene	MT-2		NL4-3	0.001–0.01 µM
Nc1nc(NC2CC2)c2ncn([C@H]3C=C[C@@H](CO)C3)c2n1	EC50	recombinant virus assay	MT-2	M41L/M184V/L210W/T215Y	Clinical isolate	0.5456 µM
Nc1nc(=O)n([C@H]2C=C[C@@H](CO)O2)cc1F	EC90	p24	PBMC	RT-M41L D67N K70R T215Y K219Q	XM-AZT-resistant	1.1 µM
CCCc1cc(=O)oc2c3c(c4c(c12)OC(C)(C)CC4)O[C@H](C)[C@@H](C)C3=O	EC50	cytopathic effect / XTT	PBMC		ROJO	2.66 µM
CC(=O)Nc1ccc(S(=O)(=O)N(CC(C)C)C[C@@H](O)[C@H](Cc2ccccc2)NC(=O)[C@H](CC(N)=O)NC(=O)c2ccc3ccccc3n2)cc1F	EC90	p24	CEM		IIIB	<0.1 µM
COc1ccnc2[nH]cc(C(=O)C(=O)N3C4CC3CN(C(=O)c3ccccc3)C4)c12	EC50	luciferase	TZM-bl		ZM214	153 µM
CC(=O)c1ccc(C)cc1NC(C(N)=O)c1c(Cl)cccc1Cl	EC50	cytopathic effect / XTT	CEM + CEM-SS	RT-Y181C	UC781-R (RT-Y181C)	>1 µM
O=C(C(=O)N1CCN(C(=O)c2cccc(O)c2)CC1)c1c[nH]c2cccc(F)c12	EC50	luciferase	HeLa + HELA CD4+/CCR5			<10 µM
O=C(O)CN1CCn2c(nc(C(=O)NCc3ccc(F)cc3)c(O)c2=O)C1	EC50	p24	MT-4			<50 µM
N#Cc1ccc(Nc2nc(Oc3ccc(-c4ccc(C#N)cc4)c(F)c3F)c3sccc3n2)cc1	EC50	MTT	MT-4	K103N	IIIB	0.0094 µM
CCCCCC1CN(C(=O)c2ccccc2)CCN1C(=O)C(=O)c1c[nH]c2c(C(=O)OC)cccc12	EC50	luciferase	HeLa + HELA CD4+/CCR5			<10 µM
Cc1nnc(C(=O)N2CCC3(CC2)NCCn2c3nc(C(=O)NCc3ccc(F)cc3)c(O)c2=O)o1	EC50	luciferase / reporter gene	MT-2		NL4-3	0.01–0.1 µM
CCN(C(=O)C(=O)N(C)C)C1CN(C)CCn2c1nc(C(=O)NCc1ccc(F)c(C)c1)c(O)c2=O	EC50	p24	MT-4			<1 µM
COc1ccc(OC)c2c(C(=O)C(=O)N3CCN(C(=O)c4ccccc4)CC3)c[nH]c12	EC50	single cycle	HeLa-CD4/CCR5		JR-FL	0.0001 µM
CC(=O)Nc1ccc(S(=O)(=O)N(CC(C)C)C[C@@H](O)[C@H](Cc2ccccc2)NC(=O)OC(C)C)cc1	EC50	p24	CEM		IIIB	<1.001 µM

ECn is the concentration giving n% inhibition of infection, replication or growth. Blank or dashed fields: not listed here. Two numbers with a dash give a range or band.